The compounds below were run against PB2 cap binding domain (PB2-CBD) (residues 318-483) (Influenza A virus (A/duck/Shantou/4610/2003(H5N1)), UniProt Q2LG68) (assay: Cap Fluorescence-Polarization Ligand Displacement (CapFP-LD) assay). Settings: read-out: Fp Ki; displacement of tracer m7GTP-5FAM from PB2-CBD.

Row | Compound | Ki [µM]
1 | O=c1[nH]nc2ccc(-c3cccc(-c4ccccc4)c3)cn12 | 27.4
2 | O=c1[nH]nc2ccc(-c3ccccc3)cn12 | 33.2
3 | COc1ccc(-c2ccc3n[nH]c(=O)n3c2)c(Cl)c1 | 2.76
4 | O=c1[nH]nc2ccc(-c3cccc(F)c3)cn12 | 35.3
5 | Cc1ccc(C)c(-c2ccc3n[nH]c(=O)n3c2)c1 | 23.2
6 | O=c1[nH]nc2ccc(-c3cccc4ccccc34)cn12 | 13.3
7 | O=c1[nH]nc2ccc(-c3ncc(F)cn3)cn12 | 105
8 | O=c1[nH]nc2ccc(-c3ccccc3Cl)cn12 | 3.2
9 | O=c1[nH]nc2ccc(-c3cccc(-c4c(F)cccc4F)c3)cn12 | 13.7
10 | O=c1[nH]nc2ccc(-c3cccc(F)c3F)cn12 | 26.9
11 | O=c1[nH]nc2ccc(Br)cn12 | 314
12 | O=c1[nH]nc2ccc(-c3cccc(Cl)c3)cn12 | 19.3
13 | O=c1[nH]nc2ccc(-c3ccc(-c4ccccc4)cc3)cn12 | 170
14 | O=c1[nH]nc2ccc(-c3ccc(Cl)cc3)cn12 | 2.8
15 | O=c1[nH]nc2ccc(Oc3ccccc3)cn12 | 416

Same assay, conditions: read-out: Fp; printed as bound without parameter name; displacement of tracer m7GTP-5FAM from PB2-CBD

Row | Compound | Ki [µM]
16 | O=c1[nH]nc2ccc(-c3ccccc3Cl)c(OCC3CC3)n12 | > 50
17 | O=c1[nH]nc2cccc(-c3ccccc3)n12 | > 50
18 | O=c1[nH]nc2ccc(-c3ccccc3-c3ccncc3)cn12 | > 50
19 | O=c1[nH]nc2n1C(OCC1CC1)CCC2 (stereo not drawn) | > 50
20 | O=c1[nH]nc2cccc(Oc3ccccc3)n12 | > 50
21 | O=c1[nH]nc2c(-c3ccccc3)cccn12 | > 50
22 | O=c1[nH]nc2ccc(-c3ccccc3-c3ccccc3)cn12 | > 50
23 | O=c1[nH]nc2ccc(-c3ccccc3-c3cccc(F)c3)cn12 | > 50
24 | O=c1[nH]nc2ccc(-c3ccccc3)c(OCC3CC3)n12 | > 50
25 | O=c1[nH]nc2ccc(-c3ccccc3Cl)c(Oc3ccccc3)n12 | > 50
26 | O=c1[nH]nc2ccc(Br)c(Oc3ccccc3)n12 | > 50
27 | O=c1[nH]nc2cccc(C#CC3CC3)n12 | > 50
28 | O=C1NNC2CCCC(CCC3CC3)N12 (stereo not drawn) | > 50
29 | O=c1[nH]nc2cc(-c3ccccc3)ccn12 | > 50
30 | O=c1[nH]nc2cccc(-c3ncccn3)n12 | > 50

From patent US20170081323A1 (priority 2015, published 2017)
